# According to the supplement of paper PMC9931576:
# Numbering of substitutions follows the chain as printed. Human monoclonal antibodies against the spike receptor-binding domain (heavy:light variable regions). IC50 against pseudoviruses bearing the spike of naturally observed variants; lower = stronger; >10 µg/ml means not reached at the top dose. No active / inactive call. The stated detection limit is 0.0005 µg/ml; values near or below 0.001 µg/ml lie at the floor of the assay.
# B1: BD55-97 (protein)
# chain 1: QVQLEESGPGLLRPSQTLSLTCAVSGASISSGGFYWTWIRQRPGKGLEWLGYISHTGGTYYSPSLKSRVIVSLVTSKNSFSLDVRSVTAADTAVYYCARLQAHCSASGCLPGDFGMDVWGRGTTVTVSS
# chain 2: SYELIQAPSVSVSPGQTASITCSGDELGNKYVFWYHQRPGQSPLLVIYQDSKRPSGIPERFSGSNSGNTATLTISGPRALDEGDYYCQAWDTDTVVFGGGTKLTVL
# B2: XG2v-032 (protein)
# chain 1: QVTLRESGPALVKPTQTLTLTCTFSGFSLSTSGMCVSWIRQPPGKALEWLARIDWDDDKYYSTSLKTRLTISKDTSKNQVVLTMTNMDPVDTATYYCARILGYCSSSYYYGMDVWGQGTTVTVSS
# chain 2: EIVLTQSPATLSLSPGERAILSCRASQSVSSYLAWYQQKPGQAPRLLIYGASNRATGIPARFSGSGSGTDFTLTISSLEPEDFAVYYCQHRSNWPPALTFGGGTQVEIK
# B3: XG2v-095 (protein)
# chain 1: QVQLVQSGAEVKKPGSSVKVSCKASGGTFSSYAISWVRQAPGQGLEWMGGIIPIFGTAYYAQKFQGRVTITADESTSTAYMELSSLRSEDTAVYYCARQSRVNGYSYAYHFDYWGQGTLVTVSS
# chain 2: QSALTQPASVSGSPGQSITISCTGTSSDVGSYNLVSWYQQHPGKAPKLLIFDVSKRPSGVSNRFSGSKSANTASLTISGLQAEDEADYYCCSYAGSSTWVFGGGTKL
# B4: XG2v-126 (protein)
# chain 1: QVQLVQSGAEVKKPGASVKVSCKASGYSFTGYYMNWVRQAPGQGLEWMGWINPNSGGTNYAQKFQGRVTMTRDASISTAYMELSRLRSDDTAVYYCASEGQLVRGGYMDVWGKGTTVTVSS
# chain 2: QSVLTQPPSVSEAPRQRVTISCSGSSSNIGNNAVNWYQQLPGKAPKLLIYYDDLLPSGVSDRFSGSKSGTSASLAISGLQSEDEADYYCASWDDRLNGVVFGGGTKL
# B5: XGv-001 (protein)
# chain 1: EVQLVESGGGLVKPGGSLRLSCAASGFTFNRYTLNWVRQAPGKGLEWVSSISSNSEYISYADSVKGRFTLSRDNAKNSMFLQMNSLRAEDTAVYYCARASPYDILTEGAFDYWGQGTLVTVSS
# chain 2: EIVMTQSPATLSVSPGERVTLSCRASLSVSTNLAWYQQKPGQAPRLLIYGASTRATGLPARFSGSGSGTEFTLTITSLQSEDFAVYYCQQYHEWPTYTFGQGTKVEIK
# B6: XGv-016 (protein)
# chain 1: QVQLVQSGTEVRKPGASVTVSCKASGYTFTTYHMHWVRRAPGQGLEWMGIIDPGTGGASYPQKFRGRVTLTRDTSTNTVYMELSSLRFQDTAIYYCARAEGSSWLGWFDPWGQGTLVTVSS
# chain 2: QSVLTQPPSASGTPGQRVSISCSGSSSNIGTNYVYWYQQLPGTAPKLLIYKNNQRPSGVPDRFSGSKSGTSASLAISGLRSEDEADYFCASWDNGLSGSGWVFGGGTKLTV
# B7: XGv-032 (protein)
# chain 1: EVQLVESGGGLVQPGGSLRLSCAASGFRFSIYDMHWVRQTTGKGLEWVSGFGTTGDTYYPDSVKGRFTISREDAKNSLYLQMNSLRPGDAAMYYCARVGRGFGEIGYDFWGQGTLVTVSS
# chain 2: SYVLTQPPSVSVAPGKTARITCGGNNIGSKSVHWYQQKPGQAPVLVIYYNSDRPSGIPERFSGSNSGNTATLTISGVEAGDEADYYCQVWNSRSDHAVVFGGGTRLTV
# B8: XGv-040 (protein)
# chain 1: EVQLVESGGGLIQPGGSLRLSCAASGFIVSNNYMSWVRQAPGKGLEWVSVIYSGGSTYYADSVKGRFTISRDNSKNTLYLQMNSLRAEDTAVYYCARDRGSSGYLGDQPYDYWGQGTLVTVSS
# chain 2: DIQMTQSPSSLSASVGDRVTITCQASQDISNSLNWYQQKPGKAPKLLIYGVSNLETGVPLRFSGSGSGTDFTFTISSLQPEDVATYYCQQYNNLPVTFGGGTRVEI
# B9: XGv-047 (protein)
# chain 1: QVQLVQSGAEVKKPGSSVKVSCKTSGNTFSSYTITWVRQAPGQGLEWMGRIMPMLGIPNYAQKFQGRVKIIADKSTSTAYLELSSLTSEDTALYYCACGRLGESSLYLIDYWGQGTQVTVSS
# chain 2: NFMLTQPHSVSESPGKTVTISCTRTSGSIASNYVQWYQRRPGSAPITLIYEDNQRPSGVPDRFSGSIDSSSNSASLSISGLKTEDEADYFCQSYDLSNWVFGGGTKLTVL
# B10: XGv-049 (protein)
# chain 1: EVQLVESGGGLVQPGGSLRLSCAASGFTFSGFDMHWLRQDRGRGLEWVSTIGTSGDTYYSDSVKGRFTISRENAKNSLYLQMNTLRVGDTAVYYCARDSGTTVTILDSWGQGTLVTVSS
# chain 2: DIQMTQSPSSLSASLGDRVTITCRASQSIGRFLNWFQQKPGKAPKLLISDSSSLQSGVPSRFSGSGSGTDFTLSISSLQPEDFATYYCQQSYSNPQITFGPGTKVDVK
# B11: XGv-051 (protein)
# chain 1: QVQLVQSGAEVKKPGSSVKVSCKASGGTFSNYALSWVRQAPGQGLEWMGGIIPIFGTTNYAQKFQGRVTITADESTSTAYMELSSLRSEDTAVYYCARLDGYSFGHDRYYQDGMDDWGPGTTVTVSS
# chain 2: DIQMTQSPSSLSASVGDRVTITCRASQAIRNDLGWYQQKPGKAPKCLIYAASTLQSGVPSRFSGSGSGTEFTLTISSLQPEDFATYFCLQQNIYPRTFGQGTKVEI
# B12: XGv-074 (protein)
# chain 1: B8 chain 1 with F27I, I28T, N31A, N73H, N83K, S84N, D111E
# chain 2: DIQMTQSPSSLSASVGDRVTITCQASQDINKYLNWYQQKPGKAPKLLIYGASNLETGVPSRFSGSGSGTDFTFTISSLRPEDIATYYCQQYDPLPVTFGGGTRVEIK
# What was measured:
# Assay in all cases: pseudovirus neutralization IC50; higher = weaker neutralization
# [1] = molecular target: SARS-CoV-2 Omicron BA.1 spike pseudovirus
# Description: (§1)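 Single-round VSV luciferase pseudovirus mixed with antibody dilutions for 1 h and put on Huh-7 cells for about a day; IC50 from the dose curve.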
# [2] = molecular target: SARS-CoV-2 Omicron BA.2 spike pseudovirus
# Description: as §1
# [3] = molecular target: SARS-CoV-2 Omicron BA.2.75 spike pseudovirus
# Description: as §1
# [4] = molecular target: SARS-CoV-2 Omicron BA.5 spike pseudovirus
# Description: as §1
# [5] = molecular target: SARS-CoV-2 Omicron BQ.1.1 spike pseudovirus
# Description: as §1
# [6] = molecular target: SARS-CoV-2 Omicron XBB spike pseudovirus
# Description: as §1
# [7] = molecular target: SARS-CoV-2 early D614G spike pseudovirus
# Description: as §1
Binder,pseudovirus neutralization IC50 [1] [µg/mL],pseudovirus neutralization IC50 [2] [µg/mL],pseudovirus neutralization IC50 [3] [µg/mL],pseudovirus neutralization IC50 [4] [µg/mL],pseudovirus neutralization IC50 [5] [µg/mL],pseudovirus neutralization IC50 [6] [µg/mL],pseudovirus neutralization IC50 [7] [µg/mL]
B1,> 10,> 10,> 10,> 10,> 10,> 10,> 10
B2,0.0257,0.0281,0.0407,0.0716,> 10,> 10,3.18
B3,0.604,0.319,2.94,> 10,> 10,> 10,0.55
B4,0.649,0.569,0.234,4.53,2.51,> 10,0.0035
B5,> 10,> 10,> 10,> 10,> 10,> 10,6.24
B6,0.0511,0.0604,0.0615,0.0622,0.309,> 10,0.00262
B7,> 10,> 10,> 10,> 10,> 10,> 10,> 10
B8,> 10,> 10,> 10,> 10,> 10,> 10,0.223
B9,0.335,0.0224,0.242,0.312,> 10,> 10,0.168
B10,> 10,> 10,> 10,> 10,> 10,> 10,7.34
B11,0.00689,0.00714,0.00741,> 10,> 10,> 10,0.00876
B12,0.276,0.0966,0.0227,0.0316,0.0983,0.183,0.0837
